Compound potency records, mixed from different reports. Data source: NIAID ChemDB in PubChem.

All rows: whole-cell or culture tests; agent: HIV-1

ECn: concentration that inhibits the pathogen or its effect by n%.

smiles,setting,strain,read by,measure,cell line,changes,result
CC[C@H](C)[C@H](C(=O)O)N1C[C@H](CN2CCC(c3cc(Cc4ccc5c(c4)OCO5)nn3CC)CC2)[C@@H](c2cccc(F)c2)C1,50% human serum,BaL,β-galactosidase,EC50,HeLa,,<0.1 µM
Cc1cn([C@H]2C[C@H](N=[N+]=[N-])[C@@H](CO)O2)c(=O)[nH]c1=O,,CE1176,p24 / ELISA,EC50,TZM-bl,,0.02823 µM
O=c1[nH]cnc2c1ncn2[C@H]1CC[C@@H](CO)O1,,IIIB,cytopathic effect / MTT,EC50,MT-4,RT-M184V,76 µM
Cc1occc1C(=S)Nc1ccc(Cl)c(C(=O)OC2CCCC2)c1,,IIIB,syncytia,EC50,CEM,RT-E138K,0.035 µg/mL
CCO/N=C(\c1ccc(Br)cc1)C1CCN(C2(C)CCN(C(=O)c3c(C)cc[n+]([O-])c3C)CC2)CC1,,ASM 80 R5 CLADE B,p24,EC50,PBMC,,0.0048 µM
c1cc(CN2CCCNCCNCCCNCC2)ccc1CN1CCCNCCNCCCNCC1,,JR-FL CLADE B R5,p24,EC50,PBMC,,>0.5 µM
Fc1cccc(F)c1[C@H]1SCc2nc3ccccc3n21,,IIIB,cytopathic effect / XTT,EC50,CEM,RT-K103N,≥6.9 µM
O=c1[nH]cnc2c1ncn2[C@H]1CC[C@@H](CO)O1,,HXB2D,p24,EC50,PBMC,,7.3 µM
Cc1cc(C#Cc2ccccc2N)cc(C)c1Oc1ccnc(Nc2ccc(C#N)cc2)n1,,IIIB,MTT,EC50,MT-4,L100I,>8.88 µM
Nc1ccn([C@H]2CC[C@@H](CO)O2)c(=O)n1,,HXB2D,p24,EC50,H9,,0.6 µM
CCn1nc(Cc2ccc(C#N)cc2)cc1C1CCN(C[C@H]2CN([C@@H](C(=O)O)C(C)(C)C)C[C@@H]2c2cccc(F)c2)CC1,,BaL,p24,EC50,PBMC,,<0.0019 µM
COc1ccc(S(=O)(=O)N(CC(C)C)C[C@@H](O)[C@H](Cc2ccccc2)NC(=O)O[C@H]2CO[C@H]3O[C@@H]4OCC[C@@H]4[C@H]32)cc1,,ERS104pre,p24 / luminescence,EC50,PBMC,,0.0006 µM
CC[C@@H](C)[C@H](C(=O)O)N1C[C@H](CN2CCC(c3cc(Cc4cc(C(F)(F)F)cc(C(F)(F)F)c4)nn3CC)CC2)[C@@H](c2cccc(F)c2)C1,50% human serum,BaL,β-galactosidase,EC90,HeLa,,>0.3 µM
CCc1c(Sc2ccccn2)n(COCc2ccccc2)c(=O)[nH]c1=O,,IIIB,cytopathic effect / XTT,EC50,PBMC,,0.046 µM
CC(C)(C)NC(=O)[C@@H]1CN(Cc2cccnc2)CCN1C[C@@H](O)C[C@@H](Cc1ccccc1)C(=O)N[C@H]1c2ccccc2C[C@H]1O,,IIIB,p24,EC90,CEM + CEM-SS,,0.027 µM
Nc1ncnc2c1ncn2[C@H]1CC[C@@H](CO)O1,,BaL,p24,EC50,MM + M/M,,1 µM
Nc1ccn([C@H]2C=C[C@@H](CO)O2)c(=O)n1,,HXB2 FTC-P5 (RT V75T),plaque count,EC50,CD4+HELA + HeLa,RT-V75T,1.5 µM
CCCc1cc(=O)oc2c3c(c4c(c12)OC(C)(C)C=C4)O[C@H](C)[C@@H](C)[C@@H]3O,,IIIB,cytopathic effect / XTT,EC50,CEM + CEM-SS,,0.08 µM
Cc1cn([C@@H]2O[C@H](CO[Si](C)(C)C(C)(C)C)C3(OS(=O)(=O)C=C3N)[C@H]2O[Si](C)(C)C(C)(C)C)c(=O)n(C)c1=O,,HE,cytopathic effect,EC50,MOLT-4,,0.06 µg/mL
Cc1cc(-c2ccc(N=Nc3ccc4c(S(=O)(=O)O)cc(S(=O)(=O)O)c(N)c4c3O)c(C)c2)ccc1N=Nc1ccc2c(S(=O)(=O)O)cc(S(=O)(=O)O)c(N)c2c1O,,RF,cytopathic effect / XTT,EC50,CEM + CEM-SS,,20 µM
CC(C)CN(C[C@@H](O)[C@H](Cc1ccccc1)NC(=O)O[C@H]1CCOC1)S(=O)(=O)c1ccc(N)cc1,,NL4-3,p24 / luminescence,EC50,MT-4,L10F M46I I54V V82A,0.4201 µM
CC1(C)C2=CC(=O)C(O)(c3ccccc3)C(=O)N2c2ccc(Cl)cc21,,RF,cytopathic effect / MTT,EC50,,,0.35 µM
CC(C)=CCN1Cc2cc(Cl)cc3[nH]c(=S)n(c23)C[C@@H]1C,,IIIB,syncytia,EC50,CEM,,0.021 µg/mL
Cc1cn([C@H]2C[C@H](N=[N+]=[N-])[C@@H](CO)O2)c(=O)[nH]c1=O,,IIIB,cytopathic effect / XTT,EC50,AA5,,0.013 µM
CCCOc1ccc(Cc2cc(C3CCN(C[C@H]4CN([C@@H](C(=O)O)[C@@H](C)CC)C[C@@H]4c4cccc(F)c4)CC3)n(CC)n2)cc1,,BaL,β-galactosidase,EC90,HeLa,,<0.00014 µM
CC[C@H](C)[C@H](NC(=O)c1ccccc1SSc1ccccc1C(=O)N[C@H](C(=O)O)[C@@H](C)CC)C(=O)O,,,p24 / RT activity,EC50,MT-4,PR-L10R M46I L63P V82T I84V,1.6 µM
Cc1ccnc2c1NC(=O)c1cccnc1N2C1CC1,,IIIB,syncytia,EC50,CEM,,0.027 µg/mL
Cc1ccnc2c1NC(=O)c1cccnc1N2C1CC1,,HXB2,β-galactosidase,EC50,MAGI (CCR5) + MAGI,RT-K103N,1.2 µM
C[C@H](Cn1cnc2c(N)ncnc21)OCP(=O)(O)O,4 d,B940374 (subtype B),p24 / ELISA / antigen,EC50,PBMCs,,2.8 µM
Cc1ccnc2c1NC(=O)c1cccnc1N2C1CC1,,HxB2D(RT-D67G),RT activity,EC50,MT-4,RT-D67G,0.012 µM
CC(C)CN(C[C@@H](O)[C@H](Cc1ccccc1)NC(=O)O[C@H]1CO[C@H]2OCC(F)(F)[C@H]21)S(=O)(=O)c1ccc(N)cc1,,NL4-3,,EC50,MT-4,A28S L33F V82I GRL04810-resistant,0.039 µM
O=c1[nH]cnc2c1ncn2[C@H]1CC[C@@H](CO)O1,,HXB2D (RT-K65R),p24,EC50,MT-4,RT-K65R,22.1 µM
Nc1ccn([C@H]2CC[C@@H](CO)O2)c(=O)n1,,BCF02,,EC50,PBMC,RT-A98G V106I Y181C,0.03 µM
Cc1cn([C@H]2C[C@H](N=[N+]=[N-])[C@@H](CO)O2)c(=O)[nH]c1=O,,IIIB,cytopathic effect / XTT,EC50,CEM + CEM-SS,,0.03 µM
Cc1cn([C@H]2C[C@H](N=[N+]=[N-])[C@@H](CO)O2)c(=O)[nH]c1=O,,HXB2D,RT activity,EC50,MT-4,,0.01 µM
Cc1cn([C@@H]2O[C@H](CO[Si](C)(C)C(C)(C)C)C3(OS(=O)(=O)C=C3N)[C@H]2O[Si](C)(C)C(C)(C)C)c(=O)n(C)c1=O,,IIIB,cytopathic effect / XTT,EC50,CEM,RT-D138K,>16 µM
Cc1cc(C#CC2CC2)cc(C)c1Oc1ccnc(Nc2ccc(C#N)cc2)n1,,IIIB,MTT,EC50,MT-4,,0.007 µM
O=c1[nH]cnc2c1ncn2[C@H]1CC[C@@H](CO)O1,,IIIB,syncytia,EC50,MOLT-4/C8 + MOLT-4,,10 µM
O=[N+]([O-])c1ccccc1S(=O)(=O)c1ccccc1,,IIIB,cytopathic effect / XTT,EC50,PBMC,,0.24 µM
Cc1cn([C@H]2C[C@H](N=[N+]=[N-])[C@@H](CO)O2)c(=O)[nH]c1=O,,ED,cytopathic effect / XTT,EC50,CEM + CEM-SS,,0.0003 µM
CN(Cc1ccccc1)C(=O)c1nc(C2COCCN2C)n(C)c(=O)c1O,10% FBS,IIIB,p24 / ELISA,EC95,MT-4,,>8 µM
Cc1cn([C@H]2C[C@H](N=[N+]=[N-])[C@@H](CO)O2)c(=O)[nH]c1=O,,RF,cytopathic effect / MTT,EC50,MT-4,,0.056 µM
CC1(C)C2=CC(=O)C(O)(c3ccccc3)C(=O)N2c2ccccc21,,RF,cytopathic effect / MTT,EC50,MT-4,,>100 µM
CCCOc1ccc(Cc2cc(C3CCN(C[C@H]4CN([C@@H](C(=O)O)C5CCCCC5)C[C@@H]4c4cccc(F)c4)CC3)n(CC)n2)cc1,,BaL,β-galactosidase,EC50,HeLa,,<0.0012 µM
Nc1nc(=O)n([C@H]2CO[C@@H](CO)S2)cc1F,,1075 (AZT-resistant),RT activity,EC50,CBMC,,0.5 µM
Cc1occc1C(=S)Nc1ccc(Cl)c(/C=N/OC(C)(C)C)c1,,IIIB,syncytia,EC50,CEM,RT-E138K,0.1 µM
Cc1ccnc2c1NC(=O)c1cccnc1N2C1CC1,,VAU (RT-A98G),,EC50,PBMC,RT-A98G,0.1 µM
Cc1cc(C#Cc2cccc(N)c2)cc(C)c1Oc1ccnc(NC2CCN(Cc3ccc(C(N)=O)cc3)CC2)n1,,IIIB,MTT,EC50,MT-4,L100I,>0.198 µM
CCCOc1ccc(Cc2cc(C3CCN(C[C@H]4CN([C@@H](C(=O)O)C(C)(C)C)C[C@@H]4c4cccc(F)c4)CC3)n(CC)n2)cc1,,BaL,β-galactosidase,EC50,HeLa,,<0.0004 µM
O=c1[nH]cnc2c1ncn2[C@H]1CC[C@@H](CO)O1,,9632 CLADE B CLADE B,p24,EC50,PBMC,,2.25 µM
O=c1[nH]cnc2c1ncn2[C@H]1CC[C@@H](CO)O1,,BCF07,,EC50,PBMC,RT-A98G V106I Y181C,0.5 µM
CCC[C@@]1(CCc2ccccc2)CC(O)=C([C@H](CC)c2cccc(NS(=O)(=O)c3ccc(C(F)(F)F)cn3)c2)C(=O)O1,,NL4-3,p24 / luminescence,EC50,MT-4,M46I V82F I84V,0.4021 µM
Nc1nc(=O)n([C@@H]2CO[C@H](CO)S2)cc1F,,3350(RT-M184V),RT activity,EC50,CBMC,RT-M184V,4.5 µM
CCOCn1c(Cc2ccccc2)c(C(C)C)c(=O)[nH]c1=O,,IIIB,syncytia,EC50,CEM,RT-V106A,0.068 µg/mL
c1ccc(C2OCc3nc4ccccc4n32)cc1,,IIIB,cytopathic effect / MTT,EC50,CEM,,8.46 µM
CN1CCOCC1c1nc(C(=O)NCCc2ccccc2)c(O)c(=O)n1C,50% human serum,IIIB,p24 / ELISA,EC95,MT-4,,>8 µM
CC(C)CN(C[C@@H](O)[C@H](Cc1cc(F)cc(F)c1)NC(=O)O[C@H]1CCO[C@H]2OCC[C@H]21)S(=O)(=O)c1ccc2nc(NC(C)C)sc2c1,,97ZA003,p24 / luminescence,EC50,PBMC,,0.0006 µM
CC[C@@H](C)[C@H](C(=O)O)N1C[C@H](CN2CCC(c3cc(Cc4ccc5ccccc5c4)nn3CC)CC2)[C@@H](c2cccc(F)c2)C1,50% human serum,BaL,β-galactosidase,EC90,HeLa,,0.3 µM
COC(=O)N[C@H](C(=O)N[C@@H](Cc1ccccc1)[C@@H](O)CN(Cc1ccc(-c2ccccn2)cc1)NC(=O)[C@@H](NC(=O)OC)C(C)(C)C)C(C)(C)C,,ERS104pre,,EC50,PBMC,L63P,0.0021 µM
CN1CCS(=O)(=O)CC1c1nc(C(=O)NCc2ccc(F)cc2)c(O)c(=O)n1C,10% FBS,IIIB,p24 / ELISA,EC95,MT-4,,>1 µM
CCOCn1c(Cc2ccccc2)c(C(C)C)c(=O)[nH]c1=O,,HE,cytopathic effect,EC50,MOLT,,0.009 µg/mL
CC[C@H](C)[C@H](C(=O)O)N1C[C@H](CN2CCC(c3cc(Cc4ccc(OC(C)C)cc4)nn3CC)CC2)[C@@H](c2cccc(F)c2)C1,50% human serum,BaL,β-galactosidase,EC90,HeLa,,0.033 µM
CC(C)CN(C[C@@H](O)[C@H](Cc1ccccc1)NC(=O)O[C@H]1CCOC1)S(=O)(=O)c1ccc(N)cc1,,NL4-3,p24 / luminescence,EC50,MT-4,,0.029 µM
C#C[C@@]1(CO)C=C[C@H](n2cc(C)c(=O)[nH]c2=O)O1,,BaL,p24,EC50,PBMC,,0.0076 µM
Cc1cc(C#Cc2ccc(C(F)(F)F)cc2)cc(C)c1Oc1ccnc(Nc2ccc(C#N)cc2)n1,,IIIB,MTT,EC50,MT-4,Y188L,>7.353 µM
CCOc1ccc(Cc2cc(C3CCN(C[C@H]4CN([C@@H](C(=O)O)C(C)(C)C)C[C@@H]4c4cccc(F)c4)CC3)n(CC)n2)cc1F,50% human serum,BaL,β-galactosidase,EC50,HeLa,,<0.011 µM
Nc1ccn([C@H]2CC[C@@H](CO)O2)c(=O)n1,,HXB2,plaque count,EC50,CD4+HELA + HeLa,RT-M184V,1.1 µM
Nc1ccn([C@H]2CC[C@@H](CO)O2)c(=O)n1,,HXB2D,p24,EC50,MT-4,,0.5 µM
CC(C)CN(C[C@@H](O)[C@H](Cc1ccccc1)NC(=O)O[C@H]1CCOC1)S(=O)(=O)c1ccc(N)cc1,"clinical isolate, multidrug-resistant",Clinical isolate,,EC50,PBMC,L10I I15V K20R L24I M36I M46L I54V I62V L63P K70Q V82A L89M,0.21 µM
Cc1cn([C@H]2C[C@H](N=[N+]=[N-])[C@@H](CO)O2)c(=O)[nH]c1=O,4 d,UG-92-024 (subtype D),p24 / ELISA / antigen,EC50,PBMCs,,0.13 µM
CC(C)=CCOc1cc(NC(=S)c2ccsc2C)ccc1Cl,,IIIB,syncytia,EC50,PBL,,0.004 µg/mL
Nc1ncnc2c1ncn2[C@@H]1O[C@H](OCP(=O)(O)O)C=C1F,4 d,UG-92-031 (subtype A),p24 / ELISA / antigen,EC50,PBMCs,,12.5 µM
Fc1cccc(F)c1C1OCc2nc3ccccc3n21,,IIIB,cytopathic effect / MTT,EC50,MT-4,,7.9 µM
CCNC(=O)N1CCN(C)C(c2nc(C(=O)NCc3ccc(F)cc3)c(O)c(=O)n2C)C1,10% FBS,IIIB,p24 / ELISA,EC95,MT-4,,0.25 µM
Fc1cccc(F)c1C1SCc2nc3ccccc3n21,,ADP/141,cytopathic effect,EC50,MT-4,,0.14 µM

Lines come from different laboratories, so protocols vary. Blank or dashed fields: not listed here.